Results reported in the supplement of paper PMC9931576.
Human monoclonal antibodies against the spike receptor-binding domain (heavy:light variable regions). IC50 against pseudoviruses bearing the spike of naturally observed variants; lower = stronger; >10 µg/ml means not reached at the top dose. No active / inactive call. The stated detection limit is 0.0005 µg/ml; values near or below 0.001 µg/ml lie at the floor of the assay.

B1: BD57-0400 (protein)
chain 1: QVQLVQSGAEVKKPGASVKVSCKASGYTFSNYYLHWVRQAPGQGLEWMGIINPSAGSTSYAQKFQGRLTMTSDTSTNRVYMELSSLRSEDTAVYYCARDLGLVPSAVGLEFWGQGTQVTVSS
chain 2: DIQMTQSPSSLSASVGDRVTITCRASQDIRNSLAWYQQQPGKVPKLLIYAASTLQSGVPSRFSGSGSGTDFTLTISTLQPEDVATYYCQKHNSSPPWTFGQGTKVEIK
B2: BD57-0375 (protein)
chain 1: QMQLAQSGPEVKKPGTSVKVSCKAAAFTFSPSSVQWVRQARGQHLEWIGWIVVASGNTEYAQQFQERVTLSRDMSTGTVYMELSSLRSEDTAVYYCAAPDCNRTTCHDGFDMWGQGTMVIVSS
chain 2: EIVLTQSPGTLSLSPGERATLSCRASQSVRSSYFAWYQQKPGQAPRLLIYGASRRATGIPDRFSGNGSGTDFTLTIRRLEPEDFAVYYCQQFGSSPWTFGQGTKVEIK
B3: BD57-0401 (protein)
chain 1: QLQLQESGPGLVKPSETLSLTCRVSGGSIGSSSYYWAWIRQPPGKGLEWIGYIYYSGVTYSNSSLKSRVTISVDTSMNQFSLKLRSVTAADTAVYYCARFVRHCSRTICYTFDYWGQGTLVTVSS
chain 2: QSALTQPPSASGSPGQSVTISCTGTSSDVGGYDYVSWYQQHPGKAPKLMIYEVSERPSGVPDRFSGSKSGNTASLTVSGLQTEDEADYYCSSYVGSNVVFGGGTKLTVL
B4: BD57-0399 (protein)
chain 1: QITLKESGPTLVKPTQTLTLTCTFSGFSLSTNGVGVGWIRQSPGKALEWLTLIYWNDDKHYSPSLKSRLTITKDTSKNQVVLTMTNMDPVDTGTYYCAHNLWDGYTGIPFHYWGQGALVTVSS
chain 2: DIQMTQSPSSLSASVGDRVTITCRASQSIGTYLSWYQHKPGKAPNLLIYDASTLQGGVPTRFSGSGSGTDFTLTISSLQPEDFATYYCLQTYTFPIFGGGTKVDIK
B5: BD57-0386 (protein)
chain 1: EVQLVESGGGLIQPGGSLRLSCAVSGFTVSSNYMSWVRQAPGKGLEWVSVIYSGGSTFYADSVKGRFTISRDHSKNTLYLQMNSLRADDTAVYHCARGLGVPVARRDYDHWGQGTLVTVSS
chain 2: DIQMTQSPSSLSASVGDRVTITCQASQDITNSLNWYQQKPGKAPKLLIYDASHLETGVPSRFSGSGSGTDFTFTITSLQPEDIATYYCQQYDNIPPYTFGQGTKLEIK
B6: BD57-0394 (protein)
chain 1: DVQLVESGGGLIQPGGSLRLSCEVSGFTVSANYMSWVRQARGKGLEWVSIIYPGGSMFYADSVKGRFTISRDKSRDTLYLQMNSLRPEDTAVYYCARGLGVPLATRDYDHWGQGTQVTVSS
chain 2: DIQMTQSPSSLSASIGDRVTITCQASQHISNSLNWYQQKPGRAPKLLIYGASNLETGVPSRFSGSGSGTDFTFTISSLQPEDTATYFCQQYDNIPPYTFGQGTKLQIK

target: SARS-CoV-2 Omicron BA.1 spike pseudovirus; assay: pseudovirus neutralization IC50; higher = weaker neutralization
Method: (§1)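 Single-round VSV luciferase pseudovirus mixed with antibody dilutions for 1 h and put on Huh-7 cells for about a day; IC50 from the dose curve.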

| Binder | pseudovirus neutralization IC50 [µg/mL] |
| --- | --- |
| B1 | > 10 |
| B2 | 0.0028 |
| B3 | > 10 |
| B4 | 0.703 |
| B5 | 0.0438 |
| B6 | 0.00293 |

target: SARS-CoV-2 Omicron BA.2 spike pseudovirus; assay: as above
Method: as §1

| Binder | pseudovirus neutralization IC50 [µg/mL] |
| --- | --- |
| B1 | > 10 |
| B2 | 0.00221 |
| B3 | > 10 |
| B4 | 0.0566 |
| B5 | 0.00655 |
| B6 | 0.00462 |

target: SARS-CoV-2 Omicron BA.2.75 spike pseudovirus; assay: as above
Method: as §1

| Binder | pseudovirus neutralization IC50 [µg/mL] |
| --- | --- |
| B1 | > 10 |
| B2 | 0.00276 |
| B3 | > 10 |
| B4 | 0.489 |
| B5 | 0.423 |
| B6 | 0.00957 |

target: SARS-CoV-2 Omicron BA.5 spike pseudovirus; assay: as above
Method: as §1

| Binder | pseudovirus neutralization IC50 [µg/mL] |
| --- | --- |
| B1 | > 10 |
| B2 | 0.0963 |
| B3 | > 10 |
| B4 | 0.0616 |
| B5 | 0.00715 |
| B6 | 0.0037 |

target: SARS-CoV-2 Omicron BQ.1.1 spike pseudovirus; assay: as above
Method: as §1

| Binder | pseudovirus neutralization IC50 [µg/mL] |
| --- | --- |
| B1 | > 10 |
| B2 | 0.452 |
| B3 | > 10 |
| B4 | 0.0764 |
| B5 | 4.5 |
| B6 | 0.0195 |

target: SARS-CoV-2 Omicron XBB spike pseudovirus; assay: as above
Method: as §1

| Binder | pseudovirus neutralization IC50 [µg/mL] |
| --- | --- |
| B1 | > 10 |
| B2 | > 10 |
| B3 | > 10 |
| B4 | 0.238 |
| B5 | > 10 |
| B6 | 0.0561 |

target: SARS-CoV-2 early D614G spike pseudovirus; assay: as above
Method: as §1

| Binder | pseudovirus neutralization IC50 [µg/mL] |
| --- | --- |
| B1 | > 10 |
| B2 | 0.00129 |
| B3 | > 10 |
| B4 | 0.0101 |
| B5 | 0.00973 |
| B6 | 0.0061 |
